Bounds are passed on as bounds.

The target of this test is SARS-CoV-2 K417N+E484K+N501Y+D614G假病毒的刺突Δ19 (SARS-CoV-2, UniProt P0DTC2 14-1254). The test is described as follows: cell-based or functional assay.

B1: S-B2二聚体 (antibody, V domains shown)
VH: QVQLQESGGGVVQPGRSLRLSCAASGFTFSSYAMHWVRQAPGKGLEWVAVISYDGSNKYYADSVKGRFTISRDNSKNTLYLQMNSLRAEDTAVYYCARDYGDYLLDYWGQGTLVTVSS
VL: LSALTQPASASGSPGQSVTISCTGTSSDVGGYNYASWYQQHPGKAPKLLIYEVTKRPSGVPDRFSSSKSGNTASLTVSGLQAEDEADYYCSSYTGTLLLFGGGTKLTVL
Regarding B1, the “NT50(B.1.351)” value is greater than 100 nM.

B2: S-D9二聚体 (antibody, V domains shown)
VH: QVQLVQSGAELKKPGESLKISCTASGYSFTNYWIAWVRQMPGKGLEWMGIVNPADSDTRYSPAFQGQVTMSADKSFNTAYLQWSRLKASDTAMYYCARLGQDHNSGWYTYFHPMDVWGQGTTVTVSS
VL: QSALTQPASVSGSPGQSITISCTGTRSDVGGYNYVSWYQQHPGKAPKLLIFGVNDRPSGVSDRFSGSRTGNTASLTISGLQPEDEADYYCSSFTRGTTLLVFG
For B2, the “NT50(B.1.351)” value was roughly 1.5 nM.

Source of the values: patent CN116406375A, “抗SARS-CoV-2刺突蛋白的三聚体抗体” (UNIV SHANGHAI TECHNOLOGY, dated 2023).
